Several values for one entry are separate records, joined by “and”; a condition that tells them apart may be missing. Identical values can stand only once. Like-named read-outs stand apart in the source and are kept apart here.
What was measured:
[1] = system: L. mexicana Cas9^ΔNT1+TcrNT2 promastigotes; experiment: Alamar blue drug sensitivity assay, L. mexicana Cas9^ΔNT1+TcrNT2 promastigotes; format: cell-based, Leishmania mexicana; conditions: Cas9^ΔNT1+TcrNT2 in comparison to L. mexicana Cas9^ΔNT1
From the text: (§1) We used L. mexicana promastigotes of the Cas9 strain developed by Beneke at al. to generate the ΔNT1 strain, and from there the Cas9^ΔNT1+TcrNT2 (see below); The original Cas9 strain was generously donated by Prof. Eva Gluenz (University of Bern, Switzerland). All strains in standard HOMEM (GIBCO, Life Technologies, Paisley, UK) supplemented with 10% heat-inactivated fetal bovine serum (FBS; PAA Laboratories, Linz, Austria) and 1% of a penicillin–streptomycin solution (10,000 U mL^−1 each; Life Technologies) at 25 °C, as described.
(§2) The Alamar blue assay (resazurin sodium salt) was used to determine the drug sensitivity of the L. mexicana promastigotes in vitro. The assay is based on the reduction of resazurin sodium salt (blue and non-fluorescent) to resorufin (pink color and fluorescent) by live cells. HOMEM medium with 10% FBS (100 μL) was added to all wells of a white 96-well plate apart from the first well. 200 μL of a known concentration of test compounds was diluted in HOMEM medium and placed in the first well. […] Fluorescence was measured in a FLUOstar OPTIMA plate reader (BMG Labtech, Germany), at a wavelength of 544 nm for excitation and 620 nm for emission. The EC50 values and fluorescence data were determined and plotted by the GraphPad Prism 8 Software using an equation for a sigmoid curve with variable slope. […]

[2] = system: L. mexicana Cas9^ΔNT1 promastigotes; experiment: Alamar blue drug sensitivity assay, L. mexicana Cas9^ΔNT1 promastigotes; format: cell-based, Leishmania mexicana; conditions: EC50 Cas9^ΔNT1 relative to L. mexicana Cas9
From the text: as §1, §2

[3] = system: L. mexicana Cas9^ΔNT1 promastigotes; set-up: method as in de Almeida Fiuza et al. [41]; conditions: EC50 Cas9^ΔNT1 relative to Cas9; starred values; ref de Almeida Fiuza et al. [41]; cited from earlier work

Structure (SMILES) | RF vs. ΔNT1 (resistance factor) [1] | RF vs. Cas9 (resistance factor) [2] | RF vs. Cas9 (resistance factor) [3]
Nc1ncnc2c1c(Br)cn2[C@@H]1O[C@H](CO)[C@@H](O)[C@H]1O [TH1003, 7-bromo-tubercidin] | 7.68 | 18.4 | 
Nc1ncnc2c1ccn2[C@@H]1O[C@H](CO)[C@@H](O)[C@H]1O [Tubercidin, tubercidin] |  | 60 | 25 and 25.2

Reference: article PMC9693223, “The Trypanosoma cruzi TcrNT2 Nucleoside Transporter Is a Conduit for the Uptake of 5-F-2′-Deoxyuridine and Tubercidin Analogues” (Molecules, 2022)
